Compound potency records, mixed from different reports. Data source: NIAID ChemDB in PubChem.

All rows: tests in culture; agent: Mycobacterium avium intracellulare

An empty or dashed field is not shown. ECn is the concentration giving n% inhibition of infection, replication or growth. Neighbouring rows are from separate reports. A number after MIC or MFC names an inhibition level or a share of isolates.

compound | read by | strain or isolate | read-out | value
CN(C)C/C=C(\c1ccc(N)cc1)c1ccc(-c2ccc(Br)cc2)cc1 | - | - | MIC | 78 µg/mL
CC1COc2c(N3CCN(C)CC3)c(F)cc3c(=O)c(C(=O)O)cn1c23 | - | 31 strains | MIC90 | 50 µg/mL
CN(C)CC=C(c1ccc(Br)cc1)c1ccc(-c2ccc(Br)cc2)cc1 | - | - | MIC | 68 µg/mL
CCSc1ncnc2ccccc12 | - | D 39/93 | MIC | 63 µM
CCCO/N=C1\[C@H](C)CC(C)(O)[C@H](O[C@@H]2O[C@H](C)C[C@H](N(C)C)[C@H]2O)[C@@H](C)[C@H](OC2C[C@@](C)(OC)[C@@H](O)[C@H](C)O2)[C@@H](C)C(=O)O[C@H](CC)[C@@](C)(O)[C@H](O)[C@H]1C | - | 20066 (clarithromycin-susceptible) | MIC | 3.13 µg/mL
Cc1c(C)c(C)[c-](C)c1C.N[C@H](C(=O)[O-])c1ccccc1.[Cl][Rh+2] | - | 1406T | MIC | 15 µg/mL
O/N=C/c1cccc[n+]1Cc1ccc(Br)s1.[Cl-] | resazurin | - | EC50 | >20 µg/mL
CCCCCCO/N=C1\[C@H](C)CC(C)(O)[C@H](O[C@@H]2O[C@H](C)C[C@H](N(C)C)[C@H]2O)[C@@H](C)[C@H](O[C@H]2C[C@@](C)(OC)[C@@H](OC(C)=O)[C@H](C)O2)[C@@H](C)C(=O)O[C@H](CC)[C@@](C)(O)[C@H](O)[C@H]1C | - | 20066 (clarithromycin-susceptible) | MIC | 1.56 µg/mL
c1ccc(CCSc2ncnc3ccccc23)cc1 | - | D 39/93 | MIC | 32 µM
CC(=O)NC[C@H]1CN(c2ccc(N3CCN(c4ccc([N+](=O)[O-])s4)CC3)c(F)c2)C(=O)O1 | - | 559/97 | MIC | 0.25 µg/mL
COc1cc(NC(C)CCCN)c2nc(C(C)(C)C)ccc2c1Oc1cccc(C(F)(F)F)c1 | - | - | EC50 | 1.5 µg/mL
CO[C@H]1/C=C/O[C@@]2(C)Oc3c(C)c(=O)c4c(O)c(c5oc6cc(N7CCCCC7)ccc6nc5c4c3C2=O)NC(=O)/C(C)=C\C=C\[C@H](C)[C@H](O)[C@@H](C)[C@@H](O)[C@@H](C)[C@H](OC(C)=O)[C@@H]1C | - | - | MIC50 | 0.6 µg/mL
CCCCCCCCC(=O)O[C@H]1[C@H](C)[C@@H](O[C@@H]2O[C@H](C)C[C@H](N(C)C)[C@H]2O)C(C)(O)C[C@@H](C)/C(=N\OCCCOc2ccccc2)[C@H](C)[C@@H](O)[C@](C)(O)[C@@H](CC)OC(=O)[C@@H]1C | - | 20066 (clarithromycin-susceptible) | MIC | 6.25 µg/mL
C=CCSc1ncnc2ccccc12 | - | D 38/92 | MIC | 250 µM
COc1cc(C(=N)N)ccc1OC/C=C\COc1ccc(C(=N)N)cc1OC | - | ATCC 23068 | MIC | 50 µg/mL
CC[C@H]1OC(=O)[C@H](C)[C@@H](OC(=O)CCc2ccccc2)[C@H](C)[C@@H](O[C@@H]2O[C@H](C)C[C@H](N(C)C)[C@H]2O)C(C)(O)C[C@@H](C)/C(=N\OCCCOc2ccccc2)[C@H](C)[C@@H](O)[C@]1(C)O | - | 20066 (clarithromycin-susceptible) | MIC | 3.13 µg/mL
Cc1ccc(/C(=C\CN(C)C)c2ccc(-c3ccc(Br)cc3)cc2)cc1 | - | - | MIC | 79 µg/mL
CCOCCN(CCOCC)c1ccc2nc3c(oc2c1)c1c(O)c2c(=O)c(C)c4c(c23)C(=O)[C@@](C)(O/C=C/[C@H](OC)[C@@H](C)[C@@H](OC(C)=O)[C@H](C)[C@H](O)[C@H](C)[C@@H](O)[C@@H](C)/C=C/C=C(/C)C(=O)N1)O4 | - | Shibazaki | MIC | 0.63 µg/mL
Cc1c(F)c(N2CCNC(C)C2)cc2c1c(=O)c(C(=O)O)cn2C1CC1 | - | 31 strains | MIC90 | 25 µg/mL
CCCCCCCCC(=O)O[C@H]1[C@H](C)OC(O[C@H]2[C@H](C)[C@@H](O[C@@H]3O[C@H](C)C[C@H](N(C)C)[C@H]3O)C(C)(O)C[C@@H](C)/C(=N\OCCCOc3ccccc3)[C@H](C)[C@@H](O)[C@](C)(O)[C@@H](CC)OC(=O)[C@@H]2C)C[C@@]1(C)OC | - | 20066 (clarithromycin-susceptible) | MIC | 0.39 µg/mL
O/N=C/c1cc[n+](Cc2cc(C[n+]3ccc(/C=N/O)cc3)on2)cc1.[Br-].[Br-] | resazurin | - | EC50 | >20 µg/mL
CC1COc2c(N3CCN(C)CC3)c(F)cc3c(=O)c(C(=O)O)cn1c23 | - | N-260 | MIC50 | 50 µg/mL
O/N=C/c1cccc[n+]1Cc1csc2ccccc12.[Cl-] | resazurin | - | EC50 | >20 µg/mL
CN(C)CC=C(c1ccccc1)c1ccc(-c2ccc(Br)cc2)cc1 | - | - | MIC | 40 µg/mL
NC(=O)c1cc[n+](CCC[n+]2cccc(/C=N/O)c2)cc1.[Br-].[Br-] | resazurin | - | EC50 | >20 µg/mL
C[C@@H]1CN(c2c(F)c(N)c3c(=O)c(C(=O)O)cn(C4CC4)c3c2F)C[C@H](C)N1 | - | 292 strains | Median MIC90 | 2 µg/mL
c1ccc(CSc2ncnc3ccccc23)cc1 | - | D 38/92 | MIC | 63 µM
CC1COc2c(C3(N)CC3)c(F)cc3c(=O)c(C(=O)O)cn1c23 | - | 31 strains | MIC90 | >100 µg/mL
CN(C)C/C=C(/c1ccc(-c2ccc(Br)cc2)cc1)c1ccc(S(C)(=O)=O)cc1 | - | - | MIC | 68 µg/mL
CCCSc1ncnc2ccccc12 | - | D 38/92 | MIC | 125 µM
CC[C@H]1OC(=O)[C@H](C)[C@@H](OC(=O)CC2CCCCC2)[C@H](C)[C@@H](O[C@@H]2O[C@H](C)C[C@H](N(C)C)[C@H]2O)C(C)(O)C[C@@H](C)/C(=N\OCCCOc2ccccc2)[C@H](C)[C@@H](O)[C@]1(C)O | - | 20066 (clarithromycin-susceptible) | MIC | 3.13 µg/mL
CO[C@H]1/C=C/O[C@@]2(C)Oc3c(C)c(=O)c4c(O)c(c5oc6cc(N7CCCC7)ccc6nc5c4c3C2=O)NC(=O)/C(C)=C\C=C\[C@H](C)[C@H](O)[C@@H](C)[C@@H](O)[C@@H](C)[C@H](OC(C)=O)[C@@H]1C | - | Shibazaki | MIC | 1.25 µg/mL
NNC(=O)c1ccncc1 | - | N-486 (HIV-) | MIC | 2 µg/mL
C/C=C/c1ccc(OC(=O)/C(C)=C/C)cc1 | - | ATCC 19709 | MIC | 20 µg/mL
CN(C)C/C=C(\c1ccc(O)cc1)c1ccc(-c2ccc(Br)cc2)cc1 | - | - | MIC | 78 µg/mL
CC[C@H]1OC(=O)[C@H](C)[C@@H](OC(=O)C(C)C)[C@H](C)[C@@H](O[C@@H]2O[C@H](C)C[C@H](N(C)C)[C@H]2O)C(C)(O)C[C@@H](C)/C(=N\OCCCOc2ccccc2)[C@H](C)[C@@H](O)[C@]1(C)O | - | 20066 (clarithromycin-susceptible) | MIC | 3.13 µg/mL
CO[C@H]1/C=C/O[C@@]2(C)Oc3c(C)c(O)c4c(O)c(c5c(c4c3C2=O)NC2(CCN(CC(C)C)CC2)N=5)=NC(=O)/C(C)=C\C=C\[C@H](C)[C@H](O)[C@@H](C)[C@@H](O)[C@@H](C)[C@H](OC(C)=O)[C@@H]1C | - | N-897 (HIV-) | MIC | 0.1 µg/mL
CO[C@H]1/C=C/O[C@@]2(C)Oc3c(C)c(O)c4c(O)c(c5c(c4c3C2=O)NC2(CCN(CC(C)C)CC2)N=5)=NC(=O)/C(C)=C\C=C\[C@H](C)[C@H](O)[C@@H](C)[C@@H](O)[C@@H](C)[C@H](OC(C)=O)[C@@H]1C | - | 953 | MIC | 0.5 µg/mL
CC[C@H]1OC(=O)[C@H](C)[C@@H](O[C@H]2C[C@@](C)(OC)[C@@H](OC(C)=O)[C@H](C)O2)[C@H](C)[C@@H](O[C@@H]2O[C@H](C)C[C@H](N(C)C)[C@H]2O)C(C)(O)C[C@@H](C)/C(=N\OCCc2ccccc2)[C@H](C)[C@@H](O)[C@]1(C)O | - | 20066 (clarithromycin-susceptible) | MIC | 1.56 µg/mL
CC[C@H]1OC(=O)[C@H](C)[C@@H](O[C@H]2C[C@@](C)(OC)[C@@H](O)[C@H](C)O2)[C@H](C)[C@@H](O[C@@H]2O[C@H](C)C[C@H](N(C)C)[C@H]2O)[C@](C)(OC)C[C@@H](C)C(=O)[C@H](C)[C@@H](O)[C@]1(C)O | - | N-897 (HIV-) | MIC | 0.5 µg/mL
C=CCc1ccc(OC(=O)/C(C)=C/C)cc1 | - | ATCC 19709 | EC50 | 7 µg/mL
CC1COc2c(N3CCN(C)CC3)c(F)cc3c(=O)c(C(=O)O)cn1c23 | - | - | MIC | 25 µg/mL

Repeating the first 3 entries:

compound	read by	strain or isolate	read-out	value
CN(C)C/C=C(\c1ccc(N)cc1)c1ccc(-c2ccc(Br)cc2)cc1	-	-	MIC	78 µg/mL
CC1COc2c(N3CCN(C)CC3)c(F)cc3c(=O)c(C(=O)O)cn1c23	-	31 strains	MIC90	50 µg/mL
CN(C)CC=C(c1ccc(Br)cc1)c1ccc(-c2ccc(Br)cc2)cc1	-	-	MIC	68 µg/mL